## HIV-1 5' UTR: effect of mutations on RNA dimer formation

The measurements come from Ye et al. 2022 (doi:10.1038/s41594-022-00746-2).

RNA: 5' end of the HIV-1 NL4-3 genome, made in vitro. Positions 1-437 read:
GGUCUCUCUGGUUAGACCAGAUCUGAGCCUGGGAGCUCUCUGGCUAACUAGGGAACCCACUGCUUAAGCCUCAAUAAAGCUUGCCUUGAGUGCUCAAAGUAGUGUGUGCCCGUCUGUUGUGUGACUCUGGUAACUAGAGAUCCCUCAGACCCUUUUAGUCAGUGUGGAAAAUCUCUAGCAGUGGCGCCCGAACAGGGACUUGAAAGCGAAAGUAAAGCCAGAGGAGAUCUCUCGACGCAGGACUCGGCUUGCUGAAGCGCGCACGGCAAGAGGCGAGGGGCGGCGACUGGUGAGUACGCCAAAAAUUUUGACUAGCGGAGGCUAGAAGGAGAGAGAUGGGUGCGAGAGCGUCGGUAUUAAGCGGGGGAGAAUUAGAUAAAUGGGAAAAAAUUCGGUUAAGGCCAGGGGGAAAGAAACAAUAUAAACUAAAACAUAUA

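Mutant RNA libraries with 1G, 2G or 3G starts, with or without cap, were folded at 37 °C for 30 min. High salt was 300 mM KCl and 5 mM MgCl2, low salt 40 mM KCl and 0.1 mM MgCl2; monomer and dimer were parted on a native gel. Kdimer compares mutation frequencies in monomer and dimer, corrected for sequencing errors.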

Scale: median log2 Kdimer over the changes at a position; positive = changes inhibit dimerization, negative = changes enhance it.
One numbering serves 1G, 2G and 3G.
A position is written with its base.

position	3G capped low-salt	3G uncapped low-salt
C393	0.10	0.12
G394	0.14	0.13
G395	-0.44	-0.09
U396	0.07	0.01
U397	-0.02	-0.06
A398	-0.06	0.00
A399	0.04	0.13
G400	-0.08	-0.03
G401	-0.06	0.10
C402	-0.10	0.02
C403	-0.32	-0.03
A404	-0.09	0.06
G405	-0.08	0.01
G406	-0.03	0.11
G407	0.04	0.06
G408	-0.06	0.02
G409	0.00	-0.02
A410	-0.02	0.00
A411	0.03	0.00
A412	-0.03	0.09
G413	0.10	-0.18
A414	0.02	-0.03
A415	0.02	0.02
A416	0.13	0.25
C417	0.09	0.22
A418	0.16	0.02
A419	0.02	-0.02
U420	0.13	-0.01
A421	0.03	0.03
U422	0.06	-0.07
A423	0.09	0.03

The first 3 entries again:

- C393 = 3G capped low-salt 0.10; 3G uncapped low-salt 0.12
- G394 = 3G capped low-salt 0.14; 3G uncapped low-salt 0.13
- G395 = 3G capped low-salt -0.44; 3G uncapped low-salt -0.09